Data taken from patent publication US8815813B2, “Methods for treating immune-mediated Dengue Fever infections and antibody-dependent enhancement of Dengue Fever infections, including Dengue Hemorrhagic Fever and Dengue Shock Syndrome” (priority 2008, dated 2014).

What follows are substances tested on FcγIIa (R131 allele) (assay: Reverse ELISA: inhibition of PAP-IC binding to FcγIIa (R131 allele) coated plates). Settings: PAP pre-incubated with peptide 1 h; positive control 1.599.

Row | Substance | OD405 FcγIIa (R131 allele)
1 | Ala-Pro-Pro-Asp-Cys-Ala-Trp-His-Leu-Gly-Glu-Leu-Val-Trp-Cys-Thr | 0.509
2 | Ala-Pro-Pro-Cys-Ala-Arg-His-Leu-Gly-Glu-Leu-Val-Trp-Cys-Thr | 0.956
3 | Ala-Pro-Pro-Cys-Ala-Phe-His-Leu-Gly-Glu-Leu-Val-Trp-Cys-Thr | 0.605
4 | Ala-Pro-Pro-Cys-Ala-Trp-His-Leu-Gly-Glu-Leu-Val-Trp-Cys-Thr | 0.658
5 | Asp-Cys-Ala-Phe-His-Leu-Gly-Glu-Leu-Val-Trp-Cys-Thr | 0.660

Same assay, conditions: summary of Table 2 over FcγIIa, FcγIIb and FcγIII

Row | Substance | overall inhibition of FcR binding to PAP (ranking in words)
6 | Ala-Pro-Pro-Asp-Cys-Ala-Trp-His-Leu-Gly-Glu-Leu-Val-Trp-Cys-Thr | greatest overall inhibition of FcR binding to PAP
